Results of unrelated studies side by side (data: NIAID ChemDB).

All rows: tests in culture; agent: Punta Toro virus

ECn: concentration that inhibits the pathogen or its effect by n%. Conditions beyond the fields shown may differ between rows. Two numbers with a dash give a range or band. Blank or dashed fields: not listed here.

structure	strain	cell line	read-out	method	value
Cc1nc(Cc2n[nH]c(=S)n2-c2ccccc2)nn1C			MIC		>80 µg/mL
O=c1[nH]c(=O)n([C@@H]2C[C@H](CO)C[C@H]2CO)cc1I		VERO	EC50		>100 µg/mL
OCCCCn1cc(Cn2ncc3c(NCc4ccccc4)ncnc32)nn1		VERO	EC50		>400 µg/mL
CCc1nc(CC(=O)NN=C(C)C)nn1CC			MIC		>80 µg/mL
Nc1ncnc2c1ncn2[C@@H]1C[C@H](NC=O)[C@@H](O)[C@H]1O		HFF	EC50		>100 µg/mL
COc1ncnc2c1cnn2Cc1cn(CCCCO)nn1		VERO	EC50		>400 µg/mL
N=C(N)c1ncn([C@@H]2O[C@H](CO)[C@@H](O)[C@H]2O)n1			EC50		1–100 µM
COC(=O)Nc1nc2c3c(ccc2[nH]1)[C@@]1(C)CCC[C@@](C)(C(=O)OC)C1CC3		VERO	EC50	plaque count	>4 µg/mL
S=c1[nH]nc(Cc2nc3n(n2)CCCCC3)o1			MIC		>80 µg/mL
COC(=O)[C@]1(C)CCC[C@]2(C)c3cc(Br)c4[nH]ccc4c3CCC12		VERO	EC50	plaque count	>4 µg/mL
O=c1[nH]c(=O)n(C2C[C@H](CO)[C@@H](CO)C2)cc1I		VERO	EC50		>100 µg/mL
Cc1nc(CC(=O)NN)nn1C			MIC		>80 µg/mL
N=C(N)c1ncn([C@@H]2O[C@H](CO)[C@@H](O)[C@H]2O)n1	Balliet	LLC-MK2	EC50		12 µg/mL
COC(=O)[C@]1(C)CCC[C@]2(C)c3ccc4nc(-c5ccccc5)c(-c5ccccc5)nc4c3CCC12		VERO	EC50	plaque count	>4 µg/mL
O=c1[nH]cnc2c1cnn2Cc1cn(CCCCO)nn1		VERO	EC50		>400 µg/mL
O=c1ccn([C@@H]2C[C@H](CO)C[C@H]2CO)c(=O)[nH]1		VERO	EC50		>100 µg/mL
CCn1nc(CC(=O)NN=C(C)C)nc1C			MIC		>80 µg/mL

The last 2 rows once more:

structure | strain | cell line | read-out | method | value
O=c1ccn([C@@H]2C[C@H](CO)C[C@H]2CO)c(=O)[nH]1 |  | VERO | EC50 |  | >100 µg/mL
CCn1nc(CC(=O)NN=C(C)C)nc1C |  |  | MIC |  | >80 µg/mL